Pooled drug test results. Numbers come from NIAID ChemDB, via PubChem.

All rows: whole-cell or culture tests; organism: Mycobacterium tuberculosis

Lines come from different laboratories, so protocols vary.

SMILES	read-out	method	mutations	tested at	setting	strain	cell line	result
CCOC(=O)c1cc(C(=O)c2ccc(F)cc2)n2ccc(C(=O)OC(C)C)cc12	MIC	resazurin	MDR-MTB					4 µg/mL
CCCCCCc1ccc(Oc2ccccc2)c(O)c1	MIC99					TN587		2 µg/mL
O=C(Oc1ccc(Cl)cc1C(=O)Nc1ccc(Cl)c(Cl)c1)c1ccccc1	MIC	broth dilution			21 d	7357/1998		0.5 µM
CSCC[C@@H]1NC(=O)[C@@H](CC(C)C)NC(=O)[C@H](CC(C)C)NC(=O)[C@H](Cc2c[nH]c3ccccc23)NC(=O)[C@@H](CCCN)NC(=O)[C@H](CC(N)=O)NC1=O	MIC100	broth dilution / resazurin				H37Rv		>80 µM
CC1CCCC2(C1)SCC(=O)N2NC(=O)Cc1csc2nc(-c3ccccc3)cn12.O	inhibition			6.25 µg/mL		H37Rv		65%
O=C(Nc1ccccc1)N1CCc2c(c(-c3ccccc3)nn2Cc2cn(-c3ccccc3Br)nn2)C1	MIC	visual reading				H37Rv		180 µM
CCC1CCC(=NNC(=O)Cc2csc3nc(-c4ccccc4)cn23)CC1	inhibition			6.25 µg/mL		H37Rv		32%
NC1[C@H]2CN(c3nc4c(cc3F)c(=O)c(C(=O)O)cn4-c3ccc(F)cc3F)C[C@@H]12	MIC50					37 strains (drug-resistant)		>4 µg/mL
CCN(CC)CCCNc1nnc2c(=O)n(C)c(=O)n(C)c2n1	MIC bound	BACTEC				H37Rv		>12.5 µg/mL
C/C=C/c1ccc2oc(-c3ccc(OC)c(OC)c3)c(C)c2c1	MIC	resazurin / absorbance	isoniazid rifampicin pyrazinamide resistant			Clinical isolate 73-A		1.9 µg/mL
NNC(=O)c1ccncc1	MIC					H37Rv		0.12 µg/mL
Cc1ccc(-n2cc(Cn3nc(-c4ccccc4)c4c3CCN(C(=O)Nc3ccccc3)C4)nn2)cc1C	MIC	visual reading				H37Rv		199 µM
Oc1ccc(Br)cc1C1N(Cc2ccc(N(CCCl)CCCl)cc2Cl)CCCN1Cc1ccc(N(CCCl)CCCl)cc1Cl	MIC bound	BACTEC				H37Rv		>12.5 µg/mL
N/C(=N\N=C\c1ccccc1Br)c1ccncc1	MIC					H37Rv		8 µg/mL
CO[C@H]1/C=C/O[C@@]2(C)Oc3c(C)c(O)c4c(O)c(c(/C=N/N5CCN(C)CC5)c(O)c4c3C2=O)NC(=O)/C(C)=C\C=C\[C@H](C)[C@H](O)[C@@H](C)[C@@H](O)[C@@H](C)[C@H](OC(C)=O)[C@@H]1C	MIC	resazurin				Strep-r		0.05–0.1 µg/mL
O=C(Oc1cc(Cl)ccc1C(=O)Nc1cccc(Br)c1)c1ccccc1	MIC	broth dilution			21 d	331/88 (H37Rv)		4 µM
O=C1NC(NNC(=O)c2ccncc2)=N/C1=C\c1ccc(Cl)cc1	EC50	resazurin				H37Rv	VERO	<12.5 µg/mL
N#CCCN(CCC#N)c1ccc(/C=C2/N=C(c3cc([N+](=O)[O-])ccc3Cl)N(NC(=O)CC(=O)Nc3ccccc3Cl)C2=O)cc1	inhibition	BACTEC		12.5 µg/mL		H37Rv		11%
O=C(Nc1ccccc1)N1CCc2c(c(-c3ccccc3)nn2Cc2cn(-c3ccccc3F)nn2)C1	MIC	visual reading				H37Rv		>200 µM
CCCCCCCCCCC[C@@H]1CCC[C@@H](C)N1	MIC					KM-R		12.8 µg/mL
Cc1c(-c2ccc(C(c3ccccc3)N3CCN(C)CC3)cc2)c([N+](=O)[O-])cc2c(=O)c(C(=O)O)cn(C(C)(C)C)c12	MIC					H37Rv		>21.22 µM
NNC(=O)C12C3(Cl)C4(Cl)C(Cl)(Cl)C5(Cl)C3(Cl)C1(Cl)C5(Cl)C42Cl	inhibition	BACTEC		12.5 µg/mL		H37Rv		60%
O=C1NC(NNC(=O)c2ccncc2)=N/C1=C\c1cccc(Cl)c1	MIC					Capreomycin-resistant		≤0.39 µg/mL
N/C(=N\N=C\c1ccc(Br)cc1)c1ccncc1	MIC					Isolate 1751 ofloxacin-resistant		4 µg/mL
C[N+](C)(C)[N-]C(=N)c1ccccc1	inhibition	BACTEC		12.5 µg/mL		H37Rv		0%
NNC(=O)c1ccncc1	MIC	resazurin / absorbance				Clinical isolate 49		0.03 µg/mL
COc1ccc2c3c([nH]c2c1N)C(C)NCC3.Cl.Cl	MIC bound	BACTEC				H37Rv		>12.5 µg/mL
CN[C@@H]1[C@H](O[C@H]2[C@H](O[C@H]3[C@H](O)[C@@H](O)[C@H](N=C(N)N)[C@@H](O)[C@@H]3N=C(N)N)O[C@@H](C)[C@]2(O)C=O)O[C@@H](CO)[C@H](O)[C@H]1O	MIC50					38 strains		0.39 µg/mL
C[C@H]1CCC/C=C/[C@@H]2C[C@H](O)C[C@H]2[C@@H](O)/C=C/C(=O)O1	inhibition	BACTEC		12.8 µg/mL		H37Rv		18%
CC1COc2c(N3CCN(C)CC3)c(F)cc3c(=O)c(C(=O)O)cn1c23	MIC90					38 strains		0.78 µg/mL
O=C(Oc1ccc(Cl)cc1C(=O)Nc1ccc(C(F)(F)F)cc1)c1ccccc1	MIC	broth dilution			14 d	53/2009		0.5 µM
CCCCCCCCc1ccc(Oc2ccccc2)c(O)c1	MIC99					NHN382		2.6 µg/mL
O=C(Cc1csc2nc(-c3ccccc3)cn12)NN=C1CCCCC1	MIC					H37Rv		>6.25 µg/mL
O=C1NC(Nc2cccc(Cl)c2)=N/C1=C\c1ccccc1Cl	MIC					H37Rv		>12.5 µg/mL
CC(C)CC1C(=O)N[C@H](CC(C)C)C(=O)N(C)C(C(C)C)C(=O)N[C@@H](CC(N)=O)C(=O)N[C@H](CCCN)C(=O)N[C@@H](Cc2c[nH]c3ccccc23)C(=O)N1C	MIC100	broth dilution / resazurin				H37Rv		>80 µM
O=C(Oc1ccc(Br)cc1C(=O)Nc1ccc(C(F)(F)F)cc1)c1ccccc1	MIC	broth dilution			21 d	331/88 (H37Rv)		1 µM
Cc1ccc(C(=O)CCC(=O)NC[C@H]2CN(c3ccc(-[n+]4[nH]nc5ccccc54)c(F)c3)C(=O)O2)c(C)c1	MIC					ATCC 27294		>16 µg/mL
Cc1c(N2CCCC(C(=O)N(C)C)C2)c([N+](=O)[O-])cc2c(=O)c(C(=O)O)cn(-c3ccc(F)cc3F)c12	MIC					H37Rv		11.52 µM
O=C(Oc1ccc(Cl)cc1C(=O)Nc1ccc(Br)cc1)c1ccccc1	MIC	broth dilution			14 d	331/88 (H37Rv)		2 µM
Cn1nnc(-c2ccc(-c3ccc(N4C[C@H](CO)OC4=O)cc3F)cn2)n1	MIC90					25 isolates (isoniazid rifampin-resistant)		0.5 µg/mL
C/C=C/c1ccc2c(c1)[C@@H](C)[C@H](c1ccc(OC)cc1)O2	MIC	resazurin / absorbance				H37Rv		7.8 µg/mL
N/C(=N\N=C\c1ccc(Cl)cc1)c1ccncc1	MIC					H37Rv		4 µg/mL
O=C(CCC(=O)c1ccc(Cl)cc1)NC[C@H]1CN(c2ccc(N3CCCCC3)c(F)c2)C(=O)O1	MIC					10 clinical isolates resistant		4–8 µg/mL
CCC1CCC2(CC1)SCC(=O)N2NC(=O)Cc1csc2nc(-c3ccc(Cl)cc3)cn12	MIC					H37Rv		>6.25 µg/mL
CC(=O)C1(C)C(=O)N(c2ccc(C)cc2)C(=O)N1c1ccc(C)cc1	inhibition	BACTEC		12.5 µg/mL		H37Rv		0%
CC1SC2(CCCCC2)N(NC(=O)Cc2csc3nc(-c4ccccc4)cn23)C1=O.O.O	EC50					H37Rv	VERO	<6.25 µg/mL
CC[C@@H](C)[C@@H]1NC(=O)[C@@H](CC(C)C)NC(=O)[C@H](CC(C)C)NC(=O)[C@H](Cc2c[nH]c3ccccc23)NC(=O)[C@@H](CCCN)NC(=O)[C@H](COC(C)(C)C)NC1=O	MIC100	broth dilution / resazurin				H37Rv		>40 µM
CC1CCCC2(C1)SCC(=O)N2NC(=O)Cc1csc2nc(-c3ccc(Cl)cc3)cn12	inhibition			6.25 µg/mL		H37Rv		36%
NNc1ncnc2c([C@@H]3O[C@H](CO)[C@@H](O)[C@H]3O)[nH]nc12	MIC bound	BACTEC				H37Rv		>12.5 µg/mL
N/C(=N\N=C\c1ccccc1Cl)c1ccncc1	MIC					H37Rv		8 µg/mL
S=C(S)N1CCOCC1	inhibition	BACTEC		12.5 µg/mL		H37Rv		-13%
CO[C@H]1/C=C/O[C@@]2(C)Oc3c(C)c(O)c4c(=O)c(c5oc6cc(N7CCN(CC(C)C)CC7)cc(=O)c6nc5c4c3=C2O)NC(=O)/C(C)=C\C=C\[C@H](C)[C@H](O)[C@@H](C)[C@@H](O)[C@@H](C)[C@H](OC(C)=O)[C@@H]1C	MIC90					23 strains (rifampicin-resistant)		25 µg/mL
CN[C@@H]1[C@H](O[C@H]2[C@H](O[C@H]3[C@H](O)[C@@H](O)[C@H](N=C(N)N)[C@@H](O)[C@@H]3N=C(N)N)O[C@@H](C)[C@]2(O)C=O)O[C@@H](CO)[C@H](O)[C@H]1O	MIC					H37Rv		0.3 µg/mL
Cc1c(N2CC(C)OC(C)C2)c([N+](=O)[O-])cc2c(=O)c(C(=O)O)cn(C(C)(C)C)c12	MIC					H37Rv		>29.94 µM
CCC(C)C(NC(=O)CNC(=O)CNC(=O)OCc1ccccc1)C(=O)O	inhibition	BACTEC		12.5 µg/mL		H37Rv		0%
CC(C)(C)c1ccc(C(=O)CCC(=O)NC[C@H]2CN(c3ccc(N4CCOCC4)c(F)c3)C(=O)O2)cc1	MIC					10 clinical isolates resistant		2–4 µg/mL
CCCc1cc(=O)oc2c3c(c4c(c12)OC(C)(C)CC4)O[C@@H](C)[C@@H](C)C3=O	MIC bound	BACTEC				H37Rv		>12.5 µg/mL
Cc1c(N2CCC(n3c(=O)[nH]c4cc(Cl)ccc43)CC2)c([N+](=O)[O-])cc2c(=O)c(C(=O)O)cn(C(C)(C)C)c12	MIC					H37Rv		>22.56 µM
COc1ccc(S(=O)(=O)NC(=S)S)cc1	MIC					TAC-R		>12.8 µg/mL
O=C(Cc1csc2nc(-c3ccc(Cl)cc3)cn12)NN=C1CCCC1	inhibition			6.25 µg/mL		H37Rv		99%
O=C(Nc1ccccc1)N1CCc2c(c(-c3ccccc3)nn2Cc2cn(-c3cc(Cl)cc(Cl)c3)nn2)C1	MIC	visual reading				H37Rv		91.83 µM
Cc1cc2c(cc1C)NC1=C(N2)OC(c2cccc(O)c2)C1=O	inhibition	BACTEC		12.5 µg/mL		H37Rv		24%
O=C1NC(NNC(=O)c2ccncc2)=N/C1=C\c1ccccc1Cl	MIC					ATCC 35838 (rifampin-resistant)		≤1.56 µg/mL
Cn1nc2ccc3nccc(NCCNCCCl)c3c2n1	inhibition	resazurin		6.25 µg/mL		H37Rv		6%
CC(C)CC1C(=O)N[C@H](CC(C)C)C(=O)N[C@@H](C(C)C)C(=O)N(C)C(CC(N)=O)C(=O)N[C@H](CCCN)C(=O)N[C@@H](Cc2c[nH]c3ccccc23)C(=O)N1C	MIC100	broth dilution / resazurin				H37Rv		>80 µM
COc1ccc(O)c2c(=O)c3c(OC)cc4c(c3oc12)[C@H]1C=CO[C@H]1O4	MIC bound	BACTEC				H37Rv		>12.5 µg/mL
CC(C)C[C@H]1NC(=O)[C@H](C)NC(=O)[C@H](Cc2c[nH]c3ccccc23)NC(=O)[C@@H](CCCN)NC(=O)[C@H](CC(N)=O)NC(=O)[C@H](C(C)C)NC1=O	MIC100	broth dilution / resazurin				H37Rv		>80 µM
O=[N+]([O-])c1ccccc1Sc1ccccc1[N+](=O)[O-]	MIC bound	BACTEC				H37Rv		>12.5 µg/mL
C[C@@H]1CN(c2c(F)c(N)c3c(=O)c(C(=O)O)cn(C4CC4)c3c2F)C[C@H](C)N1	MIC90					23 strains (rifampicin-resistant)		3.13 µg/mL
O=C(Nc1ccc(C2=NCCCN2)cc1)c1ccc(C(=O)Nc2ccc(C3=NCCCN3)cc2)nc1	MIC bound	BACTEC				H37Rv		≤12.5 µg/mL
CC1CCC/C(=N\NC(=O)Cc2csc3nc(-c4ccccc4)cn23)C1	inhibition			6.25 µg/mL		H37Rv		46%
O=C(Nc1ccc(/C=C/c2ccc(NC(=O)c3cc(S(=O)(=O)O)c4cccnc4c3O)cc2S(=O)(=O)O)c(S(=O)(=O)O)c1)c1cc(S(=O)(=O)O)c2cccnc2c1O	inhibition	BACTEC		12.5 µg/mL		H37Rv		0%
CSc1ccc(C(=O)CCC(=O)NC[C@H]2CN(c3ccc(-n4cncn4)c(F)c3)C(=O)O2)cc1	MIC					10 clinical isolates sensitive		0.5–2 µg/mL

For reference, 10 entries again:

NNC(=O)C12C3(Cl)C4(Cl)C(Cl)(Cl)C5(Cl)C3(Cl)C1(Cl)C5(Cl)C42Cl ; read-out: inhibition ; method: BACTEC ; tested at: 12.5 µg/mL ; strain: H37Rv ; result: 60%
O=C(Nc1ccc(/C=C/c2ccc(NC(=O)c3cc(S(=O)(=O)O)c4cccnc4c3O)cc2S(=O)(=O)O)c(S(=O)(=O)O)c1)c1cc(S(=O)(=O)O)c2cccnc2c1O ; read-out: inhibition ; method: BACTEC ; tested at: 12.5 µg/mL ; strain: H37Rv ; result: 0%
CCC(C)C(NC(=O)CNC(=O)CNC(=O)OCc1ccccc1)C(=O)O ; read-out: inhibition ; method: BACTEC ; tested at: 12.5 µg/mL ; strain: H37Rv ; result: 0%
CSc1ccc(C(=O)CCC(=O)NC[C@H]2CN(c3ccc(-n4cncn4)c(F)c3)C(=O)O2)cc1 ; read-out: MIC ; strain: 10 clinical isolates sensitive ; result: 0.5–2 µg/mL
O=C(Nc1ccccc1)N1CCc2c(c(-c3ccccc3)nn2Cc2cn(-c3cc(Cl)cc(Cl)c3)nn2)C1 ; read-out: MIC ; method: visual reading ; strain: H37Rv ; result: 91.83 µM
CC1SC2(CCCCC2)N(NC(=O)Cc2csc3nc(-c4ccccc4)cn23)C1=O.O.O ; read-out: EC50 ; strain: H37Rv ; cell line: VERO ; result: <6.25 µg/mL
CC1CCC/C(=N\NC(=O)Cc2csc3nc(-c4ccccc4)cn23)C1 ; read-out: inhibition ; tested at: 6.25 µg/mL ; strain: H37Rv ; result: 46%
CCCCCCCCCCC[C@@H]1CCC[C@@H](C)N1 ; read-out: MIC ; strain: KM-R ; result: 12.8 µg/mL
C/C=C/c1ccc2oc(-c3ccc(OC)c(OC)c3)c(C)c2c1 ; read-out: MIC ; method: resazurin / absorbance ; mutations: isoniazid rifampicin pyrazinamide resistant ; strain: Clinical isolate 73-A ; result: 1.9 µg/mL
Cc1c(N2CC(C)OC(C)C2)c([N+](=O)[O-])cc2c(=O)c(C(=O)O)cn(C(C)(C)C)c12 ; read-out: MIC ; strain: H37Rv ; result: >29.94 µM

ECn: concentration that inhibits the pathogen or its effect by n%. Inhibition is in % at the dose shown (toxicity tests: loss of growth or viability). An empty or dashed field is not shown. A number after MIC or MFC names an inhibition level or a share of isolates. Two numbers with a dash give a range or band. MIC bound comes from a single tested concentration.